Mutational tolerance of the Zika virus NS2B-NS3 protease

The scanned region of Zika virus MR766 is shown below (positions 1-308): NS2B is 2-131, NS3 begins at position 132.
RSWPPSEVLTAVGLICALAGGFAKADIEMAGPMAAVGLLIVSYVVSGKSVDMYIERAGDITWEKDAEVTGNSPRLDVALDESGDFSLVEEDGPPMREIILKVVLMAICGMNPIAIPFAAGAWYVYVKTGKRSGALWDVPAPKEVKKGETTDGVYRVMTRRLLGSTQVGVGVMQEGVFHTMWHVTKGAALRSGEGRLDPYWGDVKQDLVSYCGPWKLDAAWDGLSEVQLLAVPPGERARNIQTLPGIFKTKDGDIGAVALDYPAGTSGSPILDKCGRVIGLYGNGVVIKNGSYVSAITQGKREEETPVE

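Libraries of single mutants were passaged as virus pools on Huh-7.5 cells. The effect is the change in frequency of a mutant, normalised to wild type, as a mean of three replicate libraries (two for positions 207-308). The study looked for pockets that tolerate few changes, as a guide for inhibitor design.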

Values are log2 effects on growth: 0 is wild type, lower means poorer growth.
Each line gives the wild-type residue and site, then new residues with their values.
The authors count -1 or higher as tolerated. Position 1 is the last residue of NS2A.
Values above 0 are not proof of better growth: six high scorers were tested one by one, five grew less well than wild type and one about as well.
An asterisk is a stop codon; stop codons read about -7, near the floor of the assay.
Positions 1-103, 104-206 and 207-308 were made and measured as separate libraries.

A57: * -6.79; C 0.12; D -0.08; E -0.57; F -5.51; G -3.13; H -1.36; I -4.41; K -5.32; L -4.50; M -5.31; N -0.47; P -6.80; Q -1.31; R -6.80; S -0.13; T 0.50; V -0.06; W -5.08; Y -0.16
G58: * -7.60; A -1.28; C -1.37; D -5.93; E -5.78; F -5.93; H -5.45; I -5.46; K -5.72; L -7.59; M -5.59; N -5.97; P -7.21; Q -2.65; R -7.61; S -2.37; T -1.51; V -2.76; W -5.96; Y -6.15
D59: * -6.92; A -3.28; C -2.58; E -1.10; F -5.52; G -3.10; H -3.11; I -4.84; K -5.69; L -6.95; M -4.57; N -2.62; P -2.95; Q -4.17; R -7.27; S -3.14; T -3.84; V -4.90; W -5.58; Y -2.41
I60: * -7.90; A -5.70; C -5.85; D -6.40; E -5.83; F -4.77; G -7.09; H -6.51; K -6.63; L -3.91; M -3.22; N -5.17; P -6.00; Q -6.60; R -7.96; S -8.11; T -7.76; V -2.53; W -6.31; Y -3.99
T61: * -8.04; A -0.60; C -0.43; D -0.61; E -0.24; F -0.67; G -0.71; H -1.23; I -0.95; K -1.86; L -0.26; M -0.37; N -0.41; P -7.64; Q -0.42; R -1.88; S -0.24; V -0.67; W -2.06; Y -0.33
W62: * -8.43; A -6.99; C -6.98; D -5.83; E -6.51; F -5.97; G -7.76; H -6.15; I -5.97; K -6.76; L -5.11; M -6.47; N -6.20; P -7.53; Q -6.81; R -6.69; S -7.99; T -7.51; V -7.02; Y -6.13
E63: * -4.45; A -1.91; C -2.41; D 0.00; F -2.48; G -4.50; H -3.77; I -2.89; K -4.14; L -5.59; M -2.96; N -3.90; P -7.46; Q -1.72; R -6.63; S -6.17; T -3.02; V -1.75; W -3.21; Y -2.47
K64: * -8.10; A -0.11; C -0.33; D -0.07; E 0.01; F -0.64; G -2.53; H -0.18; I -0.34; L 0.30; M 0.02; N 0.35; P 0.72; Q 0.38; R -0.26; S -0.38; T -0.45; V 0.27; W -1.19; Y -0.81

From the data files of Ni et al. 2025, doi:10.1038/s41467-025-63602-z.